Measured values from several laboratories, pooled; numbers as filed in NIAID ChemDB.

All rows: tests in culture; species: Parainfluenza virus; cell line: VERO; endpoint: EC50

Neighbouring rows are from separate reports. An empty or dashed field is not shown. ECn: concentration that inhibits the pathogen or its effect by n%.

structure | strain | method | value
Nc1ncnc2c1ncn2[C@@H]1C[C@H](CO)[C@@H](O)[C@H]1O | TYPE 1 | cytopathic effect | 2 µg/mL
Nc1nc2c(ncn2[C@H]2CO[C@@H](CO)C2)c(=O)[nH]1 | TYPE 4 | cytopathic effect | 200 µg/mL
CC(Sc1ncnc2c1cnn2COCCO)C(N)=O | TYPE 3 | cytopathic effect | >400 µg/mL
CC(=O)OCCOCN1C=CC(=O)N(COCCO)S1(=O)=O | TYPE 3 |  | >400 µg/mL
Nc1nccc2c1ncn2[C@@H]1C=C(CCO)[C@@H](O)[C@H]1O | TYPE 3 | plaque count | >25 µg/mL
COC(=O)[C@]1(C)CCC[C@]2(C)c3cc(Br)c4nc(C(F)(F)F)[nH]c4c3CCC12 | TYPE 3 | plaque count | >4 µg/mL
CC1(CO)CCC(Cn2cnc3c(=O)[nH]c(N)nc32)C1(C)C | TYPE 3 | cytopathic effect | >400 µg/mL
Cc1cc(NCCCCCCCCNc2cc(C)nc3cc(N(C)C)ccc23)c2ccc(N(C)C)cc2n1 | HA-1/C243 | cytopathic effect | >500 µg/mL
Cc1cn([C@@H]2O[C@H](CO)[C@](O)(C(F)(F)F)[C@H]2O)c(=O)[nH]c1=O | TYPE 3 | cytopathic effect | >200 µg/mL
N#Cc1cc(C#N)c2[nH]c3ccccc3n2c1=O | C243 (TYPE 3) | plaque count | 5.2 µg/mL
N#Cc1cncc([C@H]2O[C@H](CO)[C@@H](O)[C@@H]2O)c1 | TYPE 3 | cytopathic effect | ≥100 µg/mL
CCOC(=O)C1=CSc2nnc(-c3cn(-c4ccccc4)nc3-c3ccccc3)n2N=C1N | TYPE 3 | cytopathic effect | >16 µg/mL
N#Cc1cc(NC(=O)c2ccccc2)c(=O)n2c1[nH]c1ccccc12 | GREER (TYPE 2) | plaque count | 0.22 µg/mL
N#Cc1cncc([C@@H]2O[C@H](CO)[C@@H](O)[C@@H]2O)c1 | TYPE 3 | cytopathic effect | ≥100 µg/mL
NC(=O)CSc1ncnc2c1cnn2COCCO | TYPE 3 | cytopathic effect | >400 µg/mL
CCOC(=O)C1Sc2nnc(-c3cn(-c4ccccc4)nc3-c3ccccc3)n2NC1=O | TYPE 3 | cytopathic effect | >16 µg/mL
Nc1ncnc2c1ncn2C1CC(CO)[C@@H](O)[C@H]1O | TYPE 1 | cytopathic effect | 3 µg/mL
N#Cc1cncc([C@H]2O[C@H](CO)[C@H](O)[C@@H]2O)c1 | TYPE 3 | cytopathic effect | ≥100 µg/mL
Nc1nccc2c1ncn2[C@@H]1C[C@H](CO)[C@@H](O)[C@H]1O | TYPE 3 | cytopathic effect | 0.2 µg/mL
Nc1ccn(CCCC(O)CF)c(=O)n1 | TYPE 3 | cytopathic effect | >400 µg/mL
Nc1nc(Cl)c2ncn([C@H]3CO[C@@H](CO)C3)c2n1 | TYPE 5 | cytopathic effect | 100 µg/mL
COC(=O)[C@]1(C)CCC[C@]2(C)c3ccc4nc5c(nc4c3CCC12)CCCC5 | TYPE 3 | plaque count | >4 µg/mL
C=CCc1ncn2c(=O)[nH]c(NC(C)=O)nc12 | TYPE 3 | cytopathic effect | >200 µg/mL
Nc1ncnc2c1ncn2[C@H]1C[C@H](O)[C@@H](C=O)O1 | TYPE 3 | cytopathic effect | 70 µg/mL
CCOC(=O)CSc1nnc(-c2cn(-c3ccccc3)nc2-c2ccccc2)n1N | TYPE 3 | cytopathic effect | >16 µg/mL
CCON=C[C@H]1O[C@@H](n2cnc3c(N)ncnc32)[C@H](O)[C@@H]1O | TYPE 3 | cytopathic effect | >100 µg/mL
CCC(Sc1ncnc2c1cnn2COCCO)C(N)=O | TYPE 3 | cytopathic effect | >400 µg/mL
NC(=O)c1cncc([C@@H]2O[C@H](CO)[C@H](O)[C@@H]2O)c1 | TYPE 3 | cytopathic effect | ≥100 µg/mL
COC(=O)[C@]1(C)CCC[C@]2(C)c3ccc4[nH]c(C(F)(F)F)nc4c3CCC12 | TYPE 3 | plaque count | >4 µg/mL
CC1(CO)CCC(Cn2cnc3c(Cl)nc(N)nc32)C1(C)C | TYPE 3 | cytopathic effect | >200 µg/mL
CC(C)Nc1ncnc2c1ncn2C1C[C@H](CO)[C@@H](CO)C1 | TYPE 3 |  | >100 µg/mL
COC(=O)[C@]1(C)CCC[C@]2(C)c3cc(Br)c4nc[nH]c4c3CCC12 | TYPE 3 | plaque count | >4 µg/mL
CO[C@H](CO)[C@@H](O)CCn1cnc2c(N)ncnc21 | TYPE 3 | cytopathic effect | >400 µg/mL
CN(C)C(=O)COC(=O)Cc1ccc(OC(=O)c2ccc(N=C(N)N)cc2)cc1.COS(=O)(=O)O | HA-1/C243 | cytopathic effect | >500 µg/mL
CON=C[C@H]1O[C@@H](n2cnc3c(N)ncnc32)[C@H](O)[C@@H]1O | TYPE 3 | cytopathic effect | >100 µg/mL
Nc1ncnc2c1ncn2[C@@H]1C=C(CO)[C@@H](O)[C@H]1O | TYPE 3 | cytopathic effect | 2 µg/mL
OCCCCn1cc(Cn2ncc3c(NCc4ccccc4)ncnc32)nn1 | TYPE 3 |  | >400 µg/mL
CC1(CO)CCC(Cn2cnc3c(N)nc(N)nc32)C1(C)C | TYPE 3 | cytopathic effect | >40 µg/mL
CCCCCCCCCCCCCCCCO[C@H]1N([C@H]2C[C@H](N=[N+]=[N-])[C@@H](CO)O2)C(=O)NC(=O)[C@]1(C)Br | HA-1/C243 | cytopathic effect | >500 µg/mL
Cc1nc(CC(O)CO)c2nc[nH]c(=O)n12 | TYPE 3 | cytopathic effect | >400 µg/mL
Nc1ncnc2c1cnn2Cc1cn(CCCCO)nn1 | TYPE 3 |  | >400 µg/mL
N#CC1=CSc2nnc(-c3cn(-c4ccccc4)nc3-c3ccccc3)n2N=C1N | TYPE 3 | cytopathic effect | >16 µg/mL
Nc1nc2c(ncn2[C@@H]2C=C(CCO)[C@@H](O)[C@H]2O)c(=O)[nH]1 | TYPE 3 | plaque count | >25 µg/mL
C[C@@]1(O)[C@@H](CO)O[C@@H](n2cnc3c(N)ncnc32)[C@@H]1O | TYPE 3 | cytopathic effect | 40 µg/mL
Nc1ccn(CC[C@H](O)CCO)c(=O)n1 | TYPE 3 | cytopathic effect | >400 µg/mL
OC[C@H]1O[C@H](c2cncc(Br)c2)[C@@H](O)[C@H]1O | TYPE 3 | cytopathic effect | ≥100 µg/mL
CO[C@H](CO)[C@@H](O)CCn1cc(C)c(=O)[nH]c1=O | TYPE 3 | cytopathic effect | >400 µg/mL
O=c1ccn([C@@H]2C[C@H](CO)C[C@H]2CO)c(=O)[nH]1 | TYPE 3 |  | >100 µg/mL
NC(=S)c1cncc([C@@H]2O[C@H](CO)[C@@H](O)[C@@H]2O)c1 | TYPE 3 | cytopathic effect | ≥100 µg/mL
Nc1ncnc2c1ncn2CCCC(O)CF | TYPE 3 | cytopathic effect | >400 µg/mL
CC(=O)OCCOCN1C=C(C#N)C(N)=NS1(=O)=O | TYPE 3 |  | >400 µg/mL
NC(=O)c1cncc([C@H]2O[C@H](CO)[C@@H](O)[C@@H]2O)c1 | TYPE 3 | cytopathic effect | ≥100 µg/mL
C/C(O)=C1\C(=N)N(COCCO)S(=O)(=O)N=C1N | TYPE 3 |  | >400 µg/mL
O=c1[nH]cnc2c1cnn2Cc1cn(CCCCO)nn1 | TYPE 3 |  | >400 µg/mL
Cc1cn(CC[C@H](O)CCO)c(=O)[nH]c1=O | TYPE 3 | cytopathic effect | >400 µg/mL
CC(=O)OCCOCN1C=CC(=O)NS1(=O)=O | TYPE 3 |  | >400 µg/mL
O=c1[nH]c(=O)n([C@@H]2C[C@H](CO)C[C@H]2CO)cc1I | TYPE 3 |  | >100 µg/mL
CC(=O)Nc1nc2c(CC(O)CO)ncn2c(=O)[nH]1 | TYPE 3 | cytopathic effect | >200 µg/mL
CCOC(=O)c1cc(C#N)c2[nH]c3ccccc3n2c1=O | TYPE 3 | plaque count | 150 µg/mL
CC(=O)OCCOCN1C(C)=CC(N)=[N+](c2ccccc2)S1(=O)=O | TYPE 3 |  | >400 µg/mL

For reference, 8 entries again:

structure,strain,method,value
CC(=O)OCCOCN1C=CC(=O)N(COCCO)S1(=O)=O,TYPE 3,,>400 µg/mL
CC1(CO)CCC(Cn2cnc3c(N)nc(N)nc32)C1(C)C,TYPE 3,cytopathic effect,>40 µg/mL
Nc1nc2c(ncn2[C@@H]2C=C(CCO)[C@@H](O)[C@H]2O)c(=O)[nH]1,TYPE 3,plaque count,>25 µg/mL
C[C@@]1(O)[C@@H](CO)O[C@@H](n2cnc3c(N)ncnc32)[C@@H]1O,TYPE 3,cytopathic effect,40 µg/mL
Nc1ncnc2c1ncn2[C@H]1C[C@H](O)[C@@H](C=O)O1,TYPE 3,cytopathic effect,70 µg/mL
COC(=O)[C@]1(C)CCC[C@]2(C)c3ccc4nc5c(nc4c3CCC12)CCCC5,TYPE 3,plaque count,>4 µg/mL
CC1(CO)CCC(Cn2cnc3c(Cl)nc(N)nc32)C1(C)C,TYPE 3,cytopathic effect,>200 µg/mL
Cc1nc(CC(O)CO)c2nc[nH]c(=O)n12,TYPE 3,cytopathic effect,>400 µg/mL